Assay results as given in paper PMC6919601, “Identification of Plasmodium dipeptidyl aminopeptidase allosteric inhibitors by high throughput screening” (PLoS ONE, 2019).

Sequences of proteins named here, by UniProt entry; tags and fusion partners are left off.
UniProt Q8I1Y2, entry or part of it: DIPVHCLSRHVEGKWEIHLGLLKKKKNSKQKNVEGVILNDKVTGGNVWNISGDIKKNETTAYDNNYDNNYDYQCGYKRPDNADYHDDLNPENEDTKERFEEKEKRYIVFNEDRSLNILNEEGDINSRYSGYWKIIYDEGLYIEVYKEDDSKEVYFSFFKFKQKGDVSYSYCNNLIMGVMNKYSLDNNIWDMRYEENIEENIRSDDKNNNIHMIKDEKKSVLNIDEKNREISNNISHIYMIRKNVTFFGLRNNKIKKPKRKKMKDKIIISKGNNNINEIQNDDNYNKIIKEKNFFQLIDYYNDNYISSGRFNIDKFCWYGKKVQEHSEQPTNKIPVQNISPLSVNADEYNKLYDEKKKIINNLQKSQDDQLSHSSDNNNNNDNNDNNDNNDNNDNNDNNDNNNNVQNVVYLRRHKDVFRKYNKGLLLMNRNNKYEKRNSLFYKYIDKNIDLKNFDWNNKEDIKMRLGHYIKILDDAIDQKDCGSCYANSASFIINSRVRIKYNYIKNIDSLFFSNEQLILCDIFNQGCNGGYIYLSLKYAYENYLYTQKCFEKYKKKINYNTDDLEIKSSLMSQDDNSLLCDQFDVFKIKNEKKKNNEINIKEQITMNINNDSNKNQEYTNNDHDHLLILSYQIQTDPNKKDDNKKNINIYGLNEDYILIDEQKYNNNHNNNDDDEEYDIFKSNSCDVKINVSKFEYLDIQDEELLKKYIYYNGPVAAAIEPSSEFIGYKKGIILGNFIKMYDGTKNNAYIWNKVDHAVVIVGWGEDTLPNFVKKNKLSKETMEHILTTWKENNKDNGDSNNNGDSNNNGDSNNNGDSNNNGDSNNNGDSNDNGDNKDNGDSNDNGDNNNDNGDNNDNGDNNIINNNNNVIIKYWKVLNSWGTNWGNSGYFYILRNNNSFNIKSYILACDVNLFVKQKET

Target: DPAP3 (Plasmodium falciparum, UniProt Q8I1Y2)
Details: read-out: IC50 DPAP3; DPAP3 1 nM, nVal-nLeu(o-Bzl)-ACC at Km (1.4 μM); N.I. = no inhibition

| Substance | IC50 [µM] |
| --- | --- |
| Brc1ccc(cc1)C(=O)c2nocc2C(=O)c3cccnc3 [SMDC112054] | > 100 |
| FC(F)(F)c1cc(nc(SCC(=O)N2CCOCC2)c1C#N)c3cccs3 [SMDC97214] | ~100 |
